A mixed list of measured activities; the numbers were collected in NIAID ChemDB.

All rows: toxicity to cultured cells; cells: A549; measure: CC50

Rows are shuffled and stem from different studies.

smiles	read by	result
N#Cc1ccc(Nc2cc(Oc3ccc(C#N)cc3)c3ccccc3n2)cc1	MTT	≥50 µg/mL
Oc1ccc(-c2nc(SCC3CC3)n[nH]2)cc1	MTT	>100 µg/mL
c1cc(N2CCN(c3ccc(C4=NCCCN4)cc3)CC2)ccc1C1=NCCCN1	-	163.3 µg/mL
Cc1c(C(F)(F)F)cc2nc(C(=O)N3CCCCC3)sc2c1[N+](=O)[O-]	resazurin / fluorescence	>100 µM
CC(C)c1ccc2[nH]c3cc(C#N)c(=O)oc3c2c1	visual reading / absorbance	32 µg/mL
Cc1ccc(-c2nc3ccccc3n2C(=O)/C=C/c2ccccc2)cc1	MTT / absorbance	<10 µg/mL
Cc1cccc(-c2nc(=S)[nH][nH]2)c1	MTT	>100 µg/mL
CC(C)CCN=C(N)c1ccc(N2CCN(c3ccc(C(N)=NCCC(C)C)cc3)CC2)cc1.Cl.Cl	-	15.6 µg/mL
COc1c(OC(C)=O)cc2c(c1O)-c1c(cc(O)c(OC)c1OC)C[C@@H](C)[C@@H](C)C2	MTT	>10 µg/mL
CCSc1n[nH]c(-c2cccc(C(F)(F)F)c2)n1	-	52.72 µg/mL
Cl.Cl.N=C(N)c1ccc(NC(=O)CCCC(=O)Nc2ccc(C(=N)N)cc2)cc1	-	1000 µg/mL
O=C(c1nc2cc(C(F)(F)F)cc([N+](=O)[O-])c2s1)N1CCCCC1	resazurin / fluorescence	100 µM
C#CCS(=O)(=O)c1nc(-c2ccc([N+](=O)[O-])c(C(F)(F)F)c2)n[nH]1	MTT	>100 µg/mL
C#CCSc1n[nH]c(-c2cccc([N+](=O)[O-])c2C)n1	-	>100 µg/mL
CC(C)CS[C@@H]1C[C@H](n2cnc3c(N)ncnc32)[C@@H](O)[C@H]1O	-	>200 µg/mL
COc1cc2c(c(OC)c1O)-c1c(cc3c(c1OC)OCO3)C[C@H](C)[C@H](C)[C@@H]2O	MTT	1.3 µg/mL
CCCCCN=C(N)c1ccc(N2CCN(c3ccc(C(N)=NCCCCC)cc3)CC2)cc1.Cl.Cl	-	66.3 µg/mL
COC1=CC(=O)c2c(O)c(C)c(CC(C)=O)c(O)c2C1=O	MTT	2.3 µg/mL
CCC(C)CN=C(N)c1ccc(N2CCN(c3ccc(C(N)=NCC(C)CC)cc3)CC2)cc1	-	>0.107 µg/mL
N#Cc1cc2[nH]c3ccc(OC(F)(F)F)cc3c2oc1=O	visual reading / absorbance	32 µg/mL
C=CCSc1n[nH]c(-c2cccc([N+](=O)[O-])c2C)n1	-	>100 µg/mL
Fc1ccc(-c2nc(=S)[nH][nH]2)cc1	MTT	>100 µg/mL
CCN=C(N)c1ccc(N2CCN(c3ccc(C(N)=NCC)cc3)CC2)cc1	-	>53.7 µg/mL
N#Cc1cc2[nH]c3ccc([N+](=O)[O-])cc3c2oc1=O	visual reading / absorbance	>100 µg/mL
NC(=NC1CCC1)c1ccc(N2CCN(c3ccc(C(N)=NC4CCC4)cc3)CC2)cc1	-	>5.8 µg/mL
CCCCSc1n[nH]c(-c2ccc([N+](=O)[O-])c(C)c2)n1	-	81.35 µg/mL
C=CCSc1n[nH]c(-c2ccc([N+](=O)[O-])c(C(F)(F)F)c2)n1	MTT	>100 µg/mL
Cc1c(C(F)(F)F)cc2nc(C3=NCCO3)sc2c1[N+](=O)[O-]	resazurin / fluorescence	>100 µM
CN1C=CN(c2cccc(N3C=CN(C)C3)n2)C1.[Cl][Au].[Cl][Au]	sulforhodamine / absorbance	>30 µM
Cc1cc(Cl)ccc1-c1nc(=S)[nH][nH]1	MTT	>100 µg/mL
Cc1cc(C#N)cc(C)c1Oc1cc(Nc2ccc(C#N)cc2)nc2ccccc12	MTT	≥50 µg/mL
COC1=CC(=O)c2c(O)c(C)c3cc(C)oc3c2C1=O	MTT	1.1 µg/mL
Cc1nc2ccccc2n1C(=O)/C=C/c1ccccc1	MTT / absorbance	>30 µg/mL
Cc1ccc(Cl)cc1-c1nc(=S)[nH][nH]1	MTT	>100 µg/mL
C=C(C)[C@@H]1CCC2(C(=O)NCCC(=O)OCC)CC[C@]3(C)C(CCC4[C@@](C)(CC#N)C(C(C)(C)C(=O)NCCC(=O)OCC)CC[C@]43C)C12	MTT	>100 µM

CCn: concentration that lowers growth or viability of the cells by n%. Blank or dashed fields: not listed here.